A mixed list of measured activities; the numbers were collected in NIAID ChemDB.

Shared fields: whole-cell or culture tests; organism: Candida albicans

An empty or dashed field is not shown.

compound	method	read-out	strain or isolate	dose	value
Cc1nn(-c2ccccc2)c2nc3nc4c(c(N)c3c(-c3ccc(Cl)cc3)c12)CCCC4	broth dilution / absorbance	MIC100	ATCC 10231		250 µg/mL
OC(CN1CCN(c2ccc(OCc3ccncc3)cc2)CC1)(Cn1cncn1)c1ccc(F)cc1F		MIC80	1		≤0.031 µg/mL
C[C@@H](N1CCN(Cc2cn(Cc3ccc(F)cc3F)c3ccccc23)CC1)[C@](O)(Cn1cncn1)c1ccc(F)cc1F	resazurin	MIC80	ATCC 90028		0.125 µg/mL
Cc1ccc(-c2c3c(N)c4c(nc3nc3c2c(C)nn3-c2ccccc2)CCC4)cc1	broth dilution / absorbance	MIC50	ATCC 10231		62.5 µg/mL
Cc1ccc(-n2cc(C(C)(C)O)nn2)cc1C	broth dilution	inhibition	URM 4819	2048 µg/mL	0%
Cc1ccc(-c2c3c(N)c4c(nc3nc3c2c(C)nn3-c2ccccc2)CCCC4)cc1	broth dilution / absorbance	MIC100	CCC 128		31.2 µg/mL
CC(C)(O)c1cn(-c2ccc([N+](=O)[O-])cc2)nn1	broth dilution	inhibition	URM 4609	2048 µg/mL	0%
C[C@@H](N1CCN(Cc2c[nH]c3ccccc23)CC1)[C@](O)(Cn1cncn1)c1ccc(F)cc1F	resazurin	MIC80	ATCC 36082		0.5 µg/mL
C=CCc1ccc(OC)c(OC)c1	turbidity	MIC90	3034		350 µg/mL
Cc1ccc(-c2c3c(N)c4c(nc3nc3c2c(C)nn3-c2ccccc2)CCCCC4)cc1	broth dilution / absorbance	MIC100	CCC 129		250 µg/mL
C[C@@H](N1CCN(Cc2cn(Cc3ccc(Cl)cc3Cl)c3ccccc23)CC1)[C@](O)(Cn1cncn1)c1ccc(F)cc1F	resazurin	MIC80	ATCC 36082		0.25 µg/mL
NC(=NC1CCCC1)c1ccc(-c2ccc(-c3ccc(C(N)=NC4CCCC4)cc3)o2)cc1		MFC	Isolate CA1548		100 µg/mL
CC(C)(O)c1cn(-c2cccc3ccccc23)nn1	broth dilution	inhibition	URM 4986	2048 µg/mL	0%
Cc1nn(-c2ccccc2)c2nc3nc4c(c(N)c3c(-c3ccc(Cl)cc3)c12)CCC4	broth dilution / absorbance	MIC80	ATCC 10231		250 µg/mL
C[C@@H](N1CCN(Cc2cn(Cc3ccc(F)cc3F)c3c(Cl)cccc23)CC1)[C@](O)(Cn1cncn1)c1ccc(F)cc1F	resazurin	MIC80	ATCC 90028		0.125 µg/mL
CC(C)(O)c1cn(-c2ccc3ccccc3c2)nn1	broth dilution	inhibition	URM 4127	2048 µg/mL	0%

A second listing of 2 rows from above:

compound | method | read-out | strain or isolate | dose | value
C=CCc1ccc(OC)c(OC)c1 | turbidity | MIC90 | 3034 |  | 350 µg/mL
Cc1ccc(-c2c3c(N)c4c(nc3nc3c2c(C)nn3-c2ccccc2)CCCCC4)cc1 | broth dilution / absorbance | MIC100 | CCC 129 |  | 250 µg/mL

Lines come from different laboratories, so protocols vary. MIC50, MIC90 and the like: level of inhibition, or share of isolates inhibited. Percent inhibition refers to the dose given; in toxicity tests it is the harm to the cells.